Assay: Extent of SOSIP gp140 cleavage by reduced SDS-PAGE

## KNH1144 SOSIP gp140: soluble, disulfide-stabilized, I571P-modified cleaved trimeric gp140 of HIV-1 subtype A KNH1144
Furin co-expression
  extent of SOSIP gp140 cleavage with Furin co-expressed: 87%
R6 substitution, no Furin
  extent of SOSIP gp140 cleavage with Hex-Arg (R6) motif: 77%
No Furin, no R6 motif, gp120 as % of total Env
  extent of SOSIP gp140 cleavage: 46%

Reference: US20110076298A1, “Soluble stabilized trimeric hiv env proteins and uses thereof” (priority 2006, published 2011)
